Measurements from PubChem BioAssay AID743200 (The Scripps Research Institute Molecular Screening Center, 2013).
The entries are a selection whose mix differs from that of the whole data set. Active and inactive are the calls of the source. No stated cut-off is given here; in the data, active means inhibition above about 25%; inactive means the rest.

The compounds below were run against Major prion protein (Homo sapiens) (UniProt P04156) (assay: cell surface PrPC inhibition, TR-FRET confirmation, confirmation, cell-based, TR-FRET (AID 743200)). Conditions: cell surface PrPC level, at 13.8 µM, hits give high values.

Structure (SMILES) | inhibition
Cc1ccc2nc3c(c(C)c2c1)CC(C(Cl)Cl)S3 (configuration not stated) | active: 37.2%
Cc1c2c(nc3ccccc13)SC(C(Cl)Cl)C2 (configuration not stated) | active: 44.7%
